ChEMBL document CHEMBL1155211, “Synthesis of organophosphates with fluorine-containing leaving groups as serine esterase inhibitors with potential for Alzheimer disease therapeutics” (2009)

Protein sequences, listed by entry. Tags and fused reporters are not part of them. Residues count along the entry.
UniProt Q29550, 19-566 limits assumed: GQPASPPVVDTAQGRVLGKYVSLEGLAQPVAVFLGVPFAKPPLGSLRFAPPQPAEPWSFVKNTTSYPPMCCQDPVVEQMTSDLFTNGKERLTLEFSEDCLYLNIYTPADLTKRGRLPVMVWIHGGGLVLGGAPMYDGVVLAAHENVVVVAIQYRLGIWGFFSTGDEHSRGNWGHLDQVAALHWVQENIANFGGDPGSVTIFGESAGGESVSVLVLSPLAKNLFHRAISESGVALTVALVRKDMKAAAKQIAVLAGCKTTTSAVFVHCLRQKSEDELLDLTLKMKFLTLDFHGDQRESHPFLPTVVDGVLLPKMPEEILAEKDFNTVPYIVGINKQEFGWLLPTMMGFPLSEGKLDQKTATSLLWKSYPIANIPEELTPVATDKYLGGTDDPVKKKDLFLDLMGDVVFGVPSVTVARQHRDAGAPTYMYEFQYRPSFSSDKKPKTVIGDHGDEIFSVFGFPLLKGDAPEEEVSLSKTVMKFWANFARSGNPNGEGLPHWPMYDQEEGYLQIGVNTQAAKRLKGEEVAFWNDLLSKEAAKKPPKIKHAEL

Biological target: Liver carboxylesterase (Sus scrofa, UniProt Q29550)
Assay: Inhibition of pig liver carboxylesterase by Lineweaver-Burke analysis

CCCCOP(=O)(OCCCC)OC(c1ccccc1)C(F)(F)F (stereo not drawn)
Ki: 0.156 µM

COP(=O)(OC)OC(c1ccccc1)C(F)(F)F (stereo not drawn)
Ki: 6.64 µM

CCOP(=O)(OCC)OC(c1ccccc1)C(F)(F)F (stereo not drawn)
Ki: 3.33 µM
